{"source": "PubChem BioAssay AID1259414 (Drosophila RNAi Screening Center, 2018)", "aim": "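Host factors increasing or decreasing Wolbachia levels in cultured fly cells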 (primary screen)", "cell system": "Drosophila JW18 cells infected with Wolbachia", "reagent": "long dsRNA against Drosophila genes, 0.25 µg dsRNA per well of a 384-well plate", "time to read-out": "5 days", "treatment": "cells persistently infected with Wolbachia before knock-down; no added drug", "detection": "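Automated imaging of bacterial rRNA staining divided by host cell count, reported as plate-normalised robust z-score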", "direction": "Wolbachia per cell robust z: higher = more Wolbachia per host cell than the plate typical", "rule for the call": "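Hit when robust z is 1.5 or more, or -1.5 or less, in at least two of three replicates; excludes dsRNAs with several or no targets, genes not expressed in JW18 and well A1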", "note": "The screen tested about 24,000 reagents; shown is a random part of those that have a named target and a result. In the full data, about 1,210 (5%) got an active call. 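Inactive calls also include excluded dsRNAs with several or no targets, genes unexpressed in JW18, and well A1, regardless of score.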 The numbers tell different reagents against one gene apart. A plus sign joins genes that one reagent is predicted to hit."}
{"gene knocked down": "CG34011", "reagent no.": 1, "Wolbachia per cell robust z, rep 1": -1.77, "Wolbachia per cell robust z, rep 2": -0.777, "Wolbachia per cell robust z, rep 3": -2.3, "call": "inactive"}
{"gene knocked down": "Lcch3 + Ranbp16", "reagent no.": 1, "Wolbachia per cell robust z, rep 1": -1.62, "Wolbachia per cell robust z, rep 2": -5.53, "Wolbachia per cell robust z, rep 3": 2.69, "call": "inactive"}
{"gene knocked down": "Ssb-c31a", "reagent no.": 1, "Wolbachia per cell robust z, rep 1": -0.314, "Wolbachia per cell robust z, rep 2": -1.28, "Wolbachia per cell robust z, rep 3": -0.203, "call": "inactive"}
{"gene knocked down": "Ssb-c31a", "reagent no.": 2, "Wolbachia per cell robust z, rep 1": 0.0424, "Wolbachia per cell robust z, rep 2": 0.215, "Wolbachia per cell robust z, rep 3": 1.13, "call": "inactive"}
{"gene knocked down": "CG13794", "reagent no.": 1, "Wolbachia per cell robust z, rep 1": -0.821, "Wolbachia per cell robust z, rep 2": -0.663, "Wolbachia per cell robust z, rep 3": -1.46, "call": "inactive"}
{"gene knocked down": "CG13794", "reagent no.": 2, "Wolbachia per cell robust z, rep 1": -0.0241, "Wolbachia per cell robust z, rep 2": -0.268, "Wolbachia per cell robust z, rep 3": 0.923, "call": "inactive"}
{"gene knocked down": "homer", "reagent no.": 1, "Wolbachia per cell robust z, rep 1": 0.563, "Wolbachia per cell robust z, rep 2": -0.0304, "Wolbachia per cell robust z, rep 3": 0.482, "call": "inactive"}
{"gene knocked down": "homer", "reagent no.": 2, "Wolbachia per cell robust z, rep 1": -0.777, "Wolbachia per cell robust z, rep 2": -2.39, "Wolbachia per cell robust z, rep 3": -1.26, "call": "inactive"}
{"gene knocked down": "rumpel", "reagent no.": 1, "Wolbachia per cell robust z, rep 1": 0.814, "Wolbachia per cell robust z, rep 2": -2.94, "Wolbachia per cell robust z, rep 3": 0.269, "call": "inactive"}
{"gene knocked down": "Zip88E", "reagent no.": 1, "Wolbachia per cell robust z, rep 1": -0.127, "Wolbachia per cell robust z, rep 2": 0.293, "Wolbachia per cell robust z, rep 3": 0.558, "call": "inactive"}
{"gene knocked down": "Zip88E", "reagent no.": 2, "Wolbachia per cell robust z, rep 1": -0.32, "Wolbachia per cell robust z, rep 2": -1.18, "Wolbachia per cell robust z, rep 3": -2.17, "call": "inactive"}
{"gene knocked down": "LanB2", "reagent no.": 1, "Wolbachia per cell robust z, rep 1": -0.378, "Wolbachia per cell robust z, rep 2": 0.215, "Wolbachia per cell robust z, rep 3": -0.51, "call": "inactive"}
